Test results reported in patent US20150104459A1, “Compositions and Methods for the Therapy and Diagnosis of Influenza” (published 2015).
Where a chain is given by its changes, count along the chain named.

How the values were obtained:
[1] = biological target: recombinant homotrimeric HA, A/Wisconsin/67/05 H3N2 (Influenza A virus A/Wisconsin/67/05 …)
[2] = biological target: recombinant homotrimeric HA, A/Solomon Islands/3/06 H1N1 (Influenza A virus A/Solomon …); experiment: trimeric HA microarray; transfection supernatant set 5
[3] = biological target: recombinant homotrimeric HA, A/California/4/09 H1N1 (Influenza A virus A/California/4/09 …); experiment: as above
[4] = biological target: recombinant homotrimeric HA, A/Indonesia/5/05 H5N1 (Influenza A virus A/Indonesia/5/05 …)
[5] = biological target: recombinant homotrimeric HA, A/swine/Ontario/01911-2/99 H4N6 (Influenza A virus …); experiment: trimeric HA microarray; transfection supernatant set 5

B1: TCN-531 (5091_H13) (antibody, V domains shown)
VH: EVQLVESGGDLVQPGRSLKLSCTGSGFTFGDYGVTWVRQAPGKGLEWVGFIRTRPWGGTADTAASVKGRFTISRDDSKSLAYLQMNSLKTEDTAVYYCCRDAPPNVEVASMTNWYFDLWGRGTLVTVSS
VL: DIQLTQSPSSLSASVGDRVTITCRASQGILNCLAWYQQKPGKVPNLLMYAASTLQSGVPSRFSGSGFGTDFTLTISSLQPEDVATYYCQTYGGVSTFGGGTKVEIR
[1]
  Trimeric HA Binding: RLU: 4160 RLU

B2: TCN-538 (3206_O17) (antibody, V domains shown)
VH: QITLKESGPTLVKPTQTLTLTCVFSGFSLSITGVRVGWIRQPPGKALEWLALISWDDEKHYSPSLQSRLTITKDTSKNQVVLTMTNLDPVDTATYYCARSTDRGHVLRYFGWMLPGDAFDVWGQGTMVTVSS
VL: DIVMTQSPDFLPVSLGERATINCKSSQRVLYSSNNKNYLAWYQLKPGQPPKLIIYWASTRESGVPDRFSGSGSGTEFTLTISSLQAEDVAVYYCQQYYSRPYTFGQGTKLEIK
[2]
  Trimeric HA Binding: RLU: 1960 RLU
[3]
  Trimeric HA Binding: RLU: 16000 RLU

B3: TCN-539 (5056_A08) (antibody, V domains shown)
VH: QVQLVESGGGVVQPGRSLRLSCAASEITFITYAMHWVRQAPGKGLEWVALISDDGSNKFYADSVKGRFTISRDNSKNTLYLQMNSLRAEDTAAYYCAREGVYFDSGTYRGYFDYWGQETLVTVSS
VL: EIVLTQSPATLSLSPGERATLSCRASQSVSSYLAWYQQKPGQAPRLLIYDASNRATGIPARFSGSGSGTDFTLTISSLEPEDFAVYYCQQRSHWPPITFGQGTRLEIK
[1]
  Trimeric HA Binding: RLU: 58800 RLU
[2]
  Trimeric HA Binding: RLU: 871 RLU

B4: TCN-540 (5060_F05) (antibody, V domains shown)
VH: QVQLVQSGGGVVQPGRSLRLSCAASGFTFSSYAMHWVRQAPGKGLEWVAIISYDGNDQYYTDSVKGRFTISRDSSKVYLQMHRLRPEDTAVYYCAKEFETSGYFHGSFDYWGQGILVTVSS
VL: QSALTQPASVSGSPGQSITISCTGTSSDVGGYNYVSWYQQHPGKAPKLLIYEVTNWPSGVSNRFSGSKSGNTASLTISGLQAEDEADYYCSSYAGSSTWVFGGGTRVTVL
[4]
  Trimeric HA Binding: RLU: 2570 RLU
[1]
  Trimeric HA Binding: RLU: 53000 RLU
[3]
  Trimeric HA Binding: RLU: 984 RLU

B5: TCN-542 (5079_A16) (antibody, V domains shown)
VH: QVQLQESGPGLVKPSQTLSLTCTVSGGSISSGNYYWNWVRQHPGKGLEWIGYIYYRGSTFYNPSLKSRVTISIDTSKNQFSLRLSSVTAADTAVYYCAKDTRSSLDNYQYGMDVWGQGTTVTVSS
VL: QTVVTQEPSLTVSPGGTVTLTCASSTGAVTSSYFPNWFQQKPGQAPRPLIYSTTIRHSWTPARFSGSLLGGKAALTLSGVQPEDEADYYCLLYSGGDPVAFGGGTKLTVL
[5]
  Trimeric HA Binding: RLU: 14300 RLU

B6: TCN-543 (5081_G23) (antibody, V domains shown)
VH: QVHLVQSGAEVRKPGDSVKVSCKTSGYTFSTYPVAWVRQVPGQGLEWMGWISTYNGNTNFAQNFQGRVTLTTDTTTNTAYMEVRSLKFDDTAVYYCARVEGSYRDFWNNQNRFDPWGQGTLVTVSS
VL: SYVLTQPPSVSVAPGQTARISCGGSNIGGKSVHWYQQKPGQAPVLVVYDDSGRPSGIPERFSGSNSGDTATLTISRVEAGDEADYFCQVWDNFGGVFGTGTKVTVL
[1]
  Trimeric HA Binding: RLU: 37000 RLU
[2]
  Trimeric HA Binding: RLU: 43500 RLU

B7: TCN-544 (5082_A19) (antibody, V domains shown)
VH: QVQLQESGPGLVKPSETLSLTCTVSRGSIGHYFWSWIRQPPGKGLEWIGYISYSGSTKYNPSLRSRVTISVDTSKNQFSLNLNSVTATDTALYYCAREDYDILTGAGPGMEVWGQGTTVTVSS
VL: QSMLTQPPSASGTPGQRVTISCSGSSSNIGSNTVNWFKHLPGTAPKLLIYRNDLRPSGVPDRFSGSKSGTSASLAISGLQSEDEADYYCATWDDSLNGFYVFGTGTKVTVL
[2]
  Trimeric HA Binding: RLU: 997 RLU
[3]
  Trimeric HA Binding: RLU: 706 RLU

B8: TCN-545 (5082_I15) (antibody, V domains shown)
VH: QVQLQQWGAGLLKPSETLSLSCAVFGGSFSDYYWTWIRQPPGKGLEWIGEIKHSGRTNYNPSLESRVTISVDTSKNQFSLKLSSVTAADTAIYYCARGTDPDTEGYCRSGSCSAFDFWGQGTLVTVSS
VL: EIVLTQSPGTLSLSPGERATLSCRASHFVNYRSLAWYQQTPGQVPRLLIYGASTRATGIPDRFSGSGSGTDFTLTISRLEPEDFAVYFCQQYGGSPRYTFGQGTRLEIK
[1]
  Trimeric HA Binding: RLU: 32000 RLU

B9: TCN-546 (5089_L08) (antibody, V domains shown)
VH: QVQLQQWGAGLLKPSETLSLTCGVYGGSLSDYYWSWIRQPPGKGLEWIGEINHSGGTNYNPSLKRRVTISVDTSKKQFSLKMNSVTAADTAVYYCARGTDPDTEVYCRAGNCAAFDFWGQGTLVTVSS
VL: EIVLTQSPGTLSLSPGERATLSCRASHFVIGRAVAWYQQKPGQAPRLLIYGASSRATGIPDRFSGSGSGTDFTLTISRLETEDFAVFYCQHYGSSPRYAFGQGTKLEIK
[4]
  Trimeric HA Binding: RLU: 40900 RLU
[1]
  Trimeric HA Binding: RLU: 28500 RLU
[3]
  Trimeric HA Binding: RLU: 1080 RLU

B10: TCN-547 (5092_F11) (antibody, V domains shown)
VH: QVQLQESGPGLVKPSQTLSLTCTVSGDSISSVDHYWSWIRQHPVKGLEWIGFMYYSASTYYNPSLKSRVTISTDTSKNQFSLRLSSVTAADTAVYYCARGTCAGDCSLHYYYYGLDVWGQGRTVTVSS
VL: DIQMTQSPSSLSASVGDRVTITCRASQSISSYLNWYQHKPGKAPKVLMYAVSILQSGVPSRFSGSGSGADFTLTISSLQPEDFATYYCQQSYSSPLTFGGGTKVEIK
[1]
  Trimeric HA Binding: RLU: 6970 RLU
[2]
  Trimeric HA Binding: RLU: 1080 RLU

B11: TCN-548 (5092_P01) (antibody, V domains shown)
VH: QVQLQESGPGLVKPSETLSLTCTVSSGPMSDYYWSWIRQPPGKGLEWIGHVSVSHGGRTKSNPSVMSRVTISVETSKNQFSLKLTSVTAADTAVYYCARLNYYDRSGYHSPDGPSNNWFDPWGQGTLVTVSS
VL: DIVMTQSPDSLAVSLGERATINCKSSQSVLYSSNNKNYLAWYQQKPGQPPKLLIYWASTRESGVPDRISGSGSGADFTLTISSLQAEDVAVYYCQQYFATPRTFGQGTKVEIK
[2]
  Trimeric HA Binding: RLU: 750 RLU
[3]
  Trimeric HA Binding: RLU: 818 RLU

B12: TCN-549 (5092_P04) (antibody, V domains shown)
VH: QVQLVQSGAEVKKPGASVKVSCKASGYTFTGYYMHWVRQAPGQGLEWMGWINPNSGDTNYAQKFQGRVTMTRDTSITTAYMELSSLRSDDTAVYYCARDSPYSSSWSFFDYWGQGPLVTVSS
VL: B11 VL with N37S, Y38H, I68F, A75T, T80I, F98Y, A99F, T100S, R102L, Q106G
[1]
  Trimeric HA Binding: RLU: 51600 RLU
[2]
  Trimeric HA Binding: RLU: 640 RLU
[3]
  Trimeric HA Binding: RLU: 622 RLU

B13: TCN-550 (5096_F06) (antibody, V domains shown)
VH: QVQLQESGPGLVKPSETLSLTCTVSGASINSHYWSWIRQPPGKGLEWIGYVYYSGSTTYNPSLKSRVTLSVDTSKNQFSLNLSSVTAADTAFYYCARHPYDVLTGSGDWFDPWGQGTLVTVSS
VL: SYVLTQAPSVSVAPGQTARITCGGNAIGSKKVHWYQHKAGQAPVLVVYDDTDRPSGIPERFSGSNSWSTATLTINRVEAGDEADYYCQVWDFTIDHVVFGGGTKLTVL
[4]
  Trimeric HA Binding: RLU: 9000 RLU
[1]
  Trimeric HA Binding: RLU: 37800 RLU
[2]
  Trimeric HA Binding: RLU: 758 RLU
[3]
  Trimeric HA Binding: RLU: 628 RLU

B14: TCN-554 (5277_M05) (antibody, V domains shown)
VH: QVQLVQSGADLKKPGASVKVSCKASGYTFTDYYIHWVRQAPGQGLEWMGWINPESGDTKYAQKFQGRVTMTRDTSITTAYMELGRLRSDDTAVYYCARDVSTTWSWFAPWGQGTLVTVSS
VL: DIVMTQSPDSLAVSLGERATINCRSSQSIFHNSNNENYLAWYQQKPGQPPKLLIYWASTRESGVPDRFSGSGSGTDFTLTISSLQAEDVAVYFCQQYYNAPLTFGGGTKVEIK
[1]
  Trimeric HA Binding: RLU: 25300 RLU
